The text below walks through data of article PMC11225919.

Where a protein sequence is shown, tags need not be part of it.

For this series, the target named is T1, Fur (6xHis-tagged) (Salmonella enterica serovar Infantis 119944) (UniProt A0A4Z0KGQ7).
T1 sequence (looked up): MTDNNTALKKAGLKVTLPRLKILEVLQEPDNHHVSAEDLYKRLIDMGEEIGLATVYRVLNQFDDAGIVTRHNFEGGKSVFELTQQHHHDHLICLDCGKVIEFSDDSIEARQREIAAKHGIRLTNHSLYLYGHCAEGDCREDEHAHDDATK
Kind of series: EMSA. The following applies: 100 uM MnCl2, 1 mM MgCl2; recombinant protein; residues 1-150; protein details: N-terminal 6xHis (pET28a, NdeI/BamHI); probe letters rebuilt from the primers and the genome.

On to “GGAGTGACTGAATTTCCTGATGAATTTTTACGGACGCCAAAAACGACAATTCAGGGTGGCGTTCTGAGAATTAATGTGAATAATAAGCATTATCAATAACTCTTCTACCCCATTCGGTTCTATTTATACCCTAAATAGTTCGAGTTGCAGGAAGGCGGCAAGCGAGGGAAGCCCCAGGAGCTTACAGAAGTAAGTGACTGGAGTGAGTGACAAATCTGTCTGGAACAGATTTGAACGCCGCTTGCGGCGGCCCGTAAGGGCGAGGCCCAGGGATGGGCCGAGTAACCCGTAGCCAACGCACATGCAACTTGAAATATGACGGGTATATGCCCGCATTGGTCTAAGCCACAGGGAGATAACCAGGTCATGACGGAGTCACCG (double strand) [ybtA promoter (pESI)]”, for which the binding result was “binds”.
